In patent publication US20220195015A1, “Neutralizing anti- sars-cov-2 antibodies” (published 2022):

B1: C703 (antibody, V domains shown)
VH: EVQLLESGGGLVQPGGSLRLSCAGSGFTFSHYALSWVRQAPGKGLEWVSCISGTGGNSHYADSVKGRFTSSRDNSKNILYLQMNSLRAEDTAVYFCAKGGDFWSGYLIPFDSWGQGTLVTVSS
VL: SYELTQSPSVSVAPGKTARITCGGDSIGSKNVHWYQQKPGQAPVLVMYYDNDRPSGIPERFSGYNSGNTATLSISRVEAGDEADYYCLVWDGSGDPWVFGGGTKLTVL
B2: C703 (antibody, V domains shown)
VH: B1 VH
VL: B1 VL
B3: C132 (antibody, V domains shown)
VH: QVQLQESGPGLVKPSGTLSLTCAVSGGSISSNNWWSCVRQPPGKGLEWIGEIYHSGSTNYNPSLKSRVTISVDKSKNQFSLKLSSVTAADTAVYYCARGGDTAMGPEYFDYWGQGTLVTVSS
VL: QSALTQPASVSGSPGQSITISCTGTSSDVGGYNYVSWYQQHPGKAPKLMIYDVSNRPSGVSNRFSGSKSGNTASLTISGLQAEDEADYYCSSYTSSSTLLFGGGTKLTVL
B4: C035 (antibody, V domains shown)
VH: EVQLVESGGGLVQPGGSLRLSCAASGFIFSSYWMTWVRQAPGKGLEWVASIKYNGNERNYVDSVKGRFTISRDNARNSLFLQLNNLGAEDTAVYYCARQPESTIWYYFDYWGQGTLVTVSS
VL: SYELTQPPSVSVSPGQTARVTCSGHALPDQYTYWYQQRPGRAPVLVIYVNNQRPSGIPDRFSATTSGTTVTLTISGVQAEDEADYYCQSADSSGSYVVFGGGTKLTVL
B5: C522 (antibody, V domains shown)
VH: EVQLVESGGGLIQPGGSLRLSCAASEFIVSRNYMSWVRQAPGKGLEWVSVIYSGGSTFYADSVKGRFTISRDESKNTLYLQMNSLRAEDTAIYYCARDRGGGILDYWGQGTLVTVS
VL: DIQMTQSPSSLSASVGDRVTITCQASQDINIFLNWYQQKPGKAPKLLIYDASSLETGVPSRFSGSGSGTDFTFTISSLQPEDFATYYCQQYGNLPKYTFGQGTKLEIK
B6: C522 (antibody, V domains shown)
VH: B5 VH
VL: B5 VL
B7: C096 (antibody, V domains shown)
VH: EVQLVESGGGLVKPGGSLRLSCVASGFTFRNAWMNWVRQAPGKGLEWVGRIKANSDGGTIDYAEPVQGRFTISREDSRNSLYLQMNSLKTEDTAVYYCTTGPQYDDFGHSYIVDSWGPGTLVTVSS
VL: DIVMTQSPLSLPVTLGEPASISCRSSQSLLHSNGFHFLEWYLQKPGQSPQLLIYVGSNRASGVPDRFSGSGSGTDFTLKISRVEAEDVGVYYCMQTLQTPLTFGGGTKVEIK
B8: C708 (antibody, V domains shown)
VH: EVQLVESGGGLVQPGGSLRLSCAASGFSFSTYWMSWVRQAPGKGLEWVADIKQDGSEKYFVDSVKGRFTISRDNAKNSLYLHLNSLRAEDTAVYYCAREMAGSGNYYWFGYGMDVWGQGTTVTVSS
VL: IRMTQSPSSVSASVGDRVTITCRASQGISSWLAWYQQKPGKAPKLLIYAASSLQSGVPSRFSGSESGTDFTLTISSLQPEDFATYYCQQANSFPLTFGGGTKVEIK
B9: C164 (antibody, V domains shown)
VH: EVQLVESGGGLVQPGGSLRLSCAASGFSVSTKYMTWVRQAPGKGLEWVSVLYSGGSDYYADSVKGRFTISRDNSKNALYLQMNSLRVEDTGVYYCARDSSEVRDHPGHPGRSVGAFDIWGQGTMVTVSS
VL: QSALTQPASVSGSPGQSITISCTGTSNDVGSYTLVSWYQQYPGKAPKLLIFEVTKRSSGISNRFSGSKSGNTASLTISGLQGEDEADYYCCSYAGASTFVFGGGTKLTVL
B10: C143 (antibody, V domains shown)
VH: B9 VH
VL: B9 VL with V53G
B11: C032 (antibody, V domains shown)
VH: EVQLVQSGAEVKKPGESLKISCKGSGYSFTSYWIGWVRQMPGKGLEWMGIIYPGDSDTRYSPSFQGQVTISADKSISTAYLQWSSLKASDTAMYYCARGVAVDWYFDLWGRGTLVTVSS
VL: QSVLTQPPSVSGAPGQRVTISCTGSSSNIGAGYDVHWYQQLPGTAPKLLIYGNSNRPSGVPDRFSGSKSGTSASLAITGLQAEDEADYYCQSYDSSLSALYVFGTGTKVTVL
B12: C047 (antibody, V domains shown)
VH: QVQLQESGPGLVKPSETLSLTCTVSGGSISSTTYYWDWIRQSPGKGLEWIGSIFYTGITYYSPSLKSRVTISVDTSKNQFSLRLNSMTAADTAVYYCARRLRQLWFGPWFDPWGQGTLVTVSS
VL: QSALTQPPSASGSPGQSVTISCTGTRSDVGDYNYVSWYQQHPDKAPKLIIYEVTKRPSGVPDRFSGSKSGNTASLTVSGLQAEDEADYYCSSYAGSNNVMFGGGTKLTVL
B13: C710 (antibody, V domains shown)
VH: B12 VH with T23I, S30N, S67T
VL: B12 VL with Y51F, N97S
B14: C704 (antibody, V domains shown)
VH: VQLVESGGGVVQPGRSLRLSCAASGFTFSRYGMHWVRQAPGKGLEWVAVSSYDGSNEYYANSVKGRFTISRDNSKNTLYLQMNSLRAEDTAVYYCAKTGASYCGGDCPFHFDYWGQGTLVTVSS
VL: IRMTQSPSSLSASVGDRVTITCQASQDINNYLNWYQQKPGKAPKLLIYDASDLETGVPSRFSGGGSGTDFTFTISSLQPEDIATYYCQHYNNLPITFGQGTRLEIK
B15: C704 (antibody, V domains shown)
VH: B14 VH
VL: B14 VL
B16: C707 (antibody, V domains shown)
VH: EVQLVESGGGLVKPGGSLRLSCAASGFTFSSYSMNWVRQAPGKGLAWVSSISSSNNIIYYADSVKGRFTISRDDAKDSLYLHMKSLRADDTAVYFCARVPSWAPYQLLPGPFDYWGQGILVTVSS
VL: IRMTQSPSSLSASVGDRVTITCQASQAIASYLSWYQHKPGRAPKLLIYDASNLEIGVPSRFSGSGSGTDFTFTISSLQSEDNATYYCQQYESLPGTFGGGTKVEIK
B17: C709 (antibody, V domains shown)
VH: QVQLVQSGAEVRKPGASVKVSCMASGYTFNTYDINWVRQGTGQGLEWMGWMNPNSGNTGHAQKFQGRVAMTVNTSMNTAYMELSSLRSEDTAVYYCARGADMLNVAVGADFDYWGQGTLVTVSS
VL: QSALTQPPSASGSPGQSVTISCTGTSSDVGGYNFVSWFQQHPGKAPKLMIYEVSKRPSGVPDRFSGSKSANTASLTVSGLQAEDEADYFCSSYAGSNNWVFGGGTKLTVL
B18: C520 (antibody, V domains shown)
VH: QVQLQQWGAGLLKPSETLSLTCAVFGGSFSGYYWGWIRQPPGKGLEWIAEINHSENSHYNPSLKSRVTISVDTFKNQFSLNLSSVTAADTALYYCVRRPRRYCSGDTCRGAFDIWGQGTMVTVSS
VL: DIQMTQSPSSLSASVGDRVTITCRASQDISNFLAWYQQKPGKVPSLLIYAASILQPGVPSRFSGSGSGTDFTLTITSLQPEDVATYYCQKYKIDPFTFGPGTKVDIK
B19: C520 (antibody, V domains shown)
VH: B18 VH
VL: B18 VL
B20: C706 (antibody, V domains shown)
VH: EVQLVESGGGLVKPGGSLRLSCAASGFTFSNVWMSWVRQAPGKGLEWVGRIKSKIDGGTTEYAAPVKGRFIISRDDSKNTLSLQMNSLKTEDTAVYYCTTDHGREPPVHWGQGTLVTVSS
VL: EIVLTQSPGTLSLSPGERASLSCRARQSVYSNYLAWYQHKSGQAPRLLFYGASSRATDIPDRFSASGSGTDFTLTISRLEPEDFAVYYCLQYGPSPTFGPGTRLEIK

What was measured:
[1] = target: SARS-CoV-2 spike protein on HIV-1 pseudotyped particles (SARS-CoV-2, UniProt P0DTC2 14-1254); experiment: cell-based or functional assay
[2] = target: SARS-CoV-2 spike (S) protein on pseudotyped HIV-1 reporter virus (SARS-CoV-2, UniProt P0DTC2 14-1254); experiment: cell-based or functional assay

| Binder | Neutralization IC50 [1] | Neutralization IC90 [1] | IC50 [2] | IC90 [2] | IC50 and IC90 [ng/ml] (one cell) [2] |
| --- | --- | --- | --- | --- | --- |
| B1 | 0.681 µg/mL | > 10 µg/mL | – | – | – |
| B2 | – | – | 0.681 µg/mL | > 10 µg/mL | – |
| B3 | – | – | 1.02 µg/mL | > 10 µg/mL | – |
| B4 | > 10 µg/mL | > 10 µg/mL | – | – | – |
| B5 | 0.0206 µg/mL | 0.074 µg/mL | – | – | – |
| B6 | – | – | 0.0206 µg/mL | 0.074 µg/mL | – |
| B7 | 0.0802 µg/mL | 0.349 µg/mL | – | – | – |
| B8 | 0.489 µg/mL | 8.86 µg/mL | – | – | – |
| B9 | – | – | 0.0593 µg/mL | 0.811 µg/mL | – |
| B10 | – | – | 0.336 µg/mL | 3 µg/mL | – |
| B11 | – | – | 0.0757 µg/mL | 1.4 µg/mL | – |
| B12 | > 10 µg/mL | > 10 µg/mL | – | – | – |
| B13 | > 10 µg/mL | > 10 µg/mL | – | – | – |
| B14 | > 10 µg/mL | > 10 µg/mL | – | – | – |
| B15 | – | – | – | – | > 10000 ng/mL |
| B16 | > 10 µg/mL | > 10 µg/mL | – | – | – |
| B17 | 0.407 µg/mL | > 10 µg/mL | – | – | – |
| B18 | > 10 µg/mL | > 10 µg/mL | – | – | – |
| B19 | – | – | – | – | > 10000 ng/mL |
| B20 | 2.03 µg/mL | > 10 µg/mL | – | – | – |

Substitutions are numbered along the chain they refer to.
